Measured values from several laboratories, pooled; numbers as filed in NIAID ChemDB.

Shared fields: tests in culture; agent: Mycobacterium fortuitum

Inhibition is in % at the dose shown (toxicity tests: loss of growth or viability). ECn: concentration that inhibits the pathogen or its effect by n%. An empty or dashed field is not shown. Neighbouring rows are from separate reports. MIC50, MIC90 and the like: level of inhibition, or share of isolates inhibited.

SMILES,strain,method,measure,tested at,result
NC1CCN(c2c(F)cc3c(=O)c(C(=O)O)cn(C4CC4)c3c2C(F)(F)F)C1,ATCC 6841,,MIC,,0.13 µg/mL
Nc1ccc(C(=O)O)c(O)c1,22 strains,agar,EC50,,>10 µg/mL
NC1CCN(c2nc3c(cc2F)c(=O)c(C(=O)O)cn3-c2ccc(F)cc2F)C1,ATCC 6841,,MBC,,4 µg/mL
CNCC1CCN(c2c(F)cc3c(=O)c(C(=O)O)cn(C4CC4)c3c2F)C1,ATCC 6841,,MIC,,0.06 µg/mL
CCC(C)N1CCN(c2cc(=O)c3nc4c(oc3c2)c2c(=O)c3c(O)c(C)c5c(c34)=C(O)[C@@](C)(O/C=C/[C@H](OC)[C@@H](C)[C@@H](OC(C)=O)[C@H](C)[C@H](O)[C@H](C)[C@@H](O)[C@@H](C)/C=C/C=C(/C)C(=O)N2)O5)CC1,20 strains,,MIC90,,>100 µg/mL
CC1CN(c2nc3c(cc2F)c(=O)c(C(=O)O)cn3C(C)(C)C)CCN1,ATCC 6841,,MIC,,0.03 µg/mL
CN[C@@H]1[C@H](O)[C@H](NC)[C@H]2O[C@@]3(O)C(=O)C[C@@H](C)O[C@H]3O[C@@H]2[C@H]1O,31 isolates,,MBC90,,>64 µg/mL
CC[C@@H](C)N1CCN(c2cc(=O)c3nc4c(oc3c2)c2c(=O)c3c(O)c(C)c5c(c34)=C(O)[C@@](C)(O/C=C/[C@H](OC)[C@@H](C)[C@@H](OC(C)=O)[C@H](C)[C@H](O)[C@H](C)[C@@H](O)[C@@H](C)/C=C/C=C(/C)C(=O)N2)O5)CC1,20 strains,,MIC50,,6.25 µg/mL
C[C@@H]1CN(c2nc3c(cc2F)c(=O)c(C(=O)O)cn3C(C)(C)C)C[C@H](C)N1,ATCC 6841,,MIC,,0.03 µg/mL
CN1CCSC1=[Se],CA10,,MIC,,100 µg/mL
CC[C@H]1OC(=O)[C@H](C)[C@@H](O[C@H]2C[C@@](C)(OC)[C@@H](O)[C@H](C)O2)[C@H](C)[C@@H](O[C@@H]2O[C@H](C)C[C@H](N(C)C)[C@H]2O)[C@](C)(O)C[C@@H](C)/C(=N\OCOCCOC)[C@H](C)[C@@H](O)[C@]1(C)O,48 strains,,MIC50,,64 µg/mL
N/C(=N\N=C\c1cccc2ccccc12)c1ccccn1,,,inhibition,1000 µM,18.3%
COc1c(N2CCNCC2)c(F)cc2c(=O)c(C(=O)O)cn(-c3ccc(F)cc3F)c12,ATCC 6841,,MIC,,0.5 µg/mL
CCN1C(=O)C(=O)N(CC)C1=S,CA10,,MIC,,>100 µg/mL
CCOc1c(N2CCC(CNC)C2)c(F)cc2c(=O)c(C(=O)O)cn(C3CC3)c12,ATCC 6841,,MIC,,0.13 µg/mL
N/C(=N\N=C\c1ccccn1)c1ccccn1,,,inhibition,1000 µM,1.3%
C[C@H]1c2cccc(O)c2C(O)=C2C(=O)[C@]3(O)C(O)=C(C(N)=O)C(=O)[C@@H](N(C)C)[C@@H]3[C@@H](O)[C@@H]21,10 strains,,MIC90,,>16 µg/mL
CC1(C)NC(=S)NC1=O,CA10,,MIC,,>100 µg/mL
CCC(C)(C)c1ccc(C=O)cc1,,,inhibition,1000 µM,8%
CCN1C(=O)C(=O)N(CC)C1=[Se],CA10,,MIC,,6 µg/mL
CC1CN(c2cc3c(cc2F)c(=O)c(C(=O)O)cn3C(C)(C)C)CCN1,ATCC 6841,,MIC,,0.03 µg/mL
N/C(=N\N=C1CCCCCCCCCCC1)c1ccccn1,,,EC50,,>100 µM
NC1CCN(c2c(F)cc3c(=O)c(C(=O)O)cn(-c4ccc(F)cc4F)c3c2F)C1,ATCC 6841,,MIC,,0.25 µg/mL
CN[C@@H]1[C@@H](O)[C@@H](O[C@@H]2[C@@H](O)[C@H](O[C@H]3O[C@H](CN)CC[C@H]3N)[C@@H](N)C[C@H]2N)OC[C@]1(C)O,31 isolates,,MBC90,,>64 µg/mL

3 of the rows above, restated:

SMILES	strain	method	measure	tested at	result
CC1(C)NC(=S)NC1=O	CA10		MIC		>100 µg/mL
Nc1ccc(C(=O)O)c(O)c1	22 strains	agar	EC50		>10 µg/mL
CCC(C)(C)c1ccc(C=O)cc1			inhibition	1000 µM	8%